Pooled drug test results. Numbers come from NIAID ChemDB, via PubChem.

Common to all: whole-cell or culture tests; agent: Mycobacterium avium intracellulare

A number after MIC or MFC names an inhibition level or a share of isolates. An empty or dashed field is not shown. Rows are shuffled and stem from different studies. Percent inhibition refers to the dose given; in toxicity tests it is the harm to the cells.

compound,dose,read-out,strain,value
CC1COc2c(N3CCN(C)CC3)c(F)cc3c(=O)c(C(=O)O)cn1c23,-,MIC,-,4 µg/mL
C[C@H]1COc2c(N3CCN(C)CC3)c(F)cc3c(=O)c(C(=O)O)cn1c23,-,MIC90,16 isolates,50 µg/mL
CN[C@@H]1[C@H](O[C@H]2[C@H](O[C@H]3[C@H](O)[C@@H](O)[C@H](N=C(N)N)[C@@H](O)[C@@H]3N=C(N)N)O[C@@H](C)[C@]2(O)C=O)O[C@@H](CO)[C@H](O)[C@H]1O,-,MBC,-,16 µg/mL
NC[C@H]1O[C@H](O[C@H]2[C@H](O)[C@@H](O[C@H]3O[C@H](CO)[C@@H](O)[C@H](N)[C@H]3O)[C@H](N)C[C@@H]2N)[C@H](O)[C@@H](O)[C@@H]1O,-,MIC,N-486 (HIV-),8 µg/mL
CO[C@H]1/C=C/O[C@@]2(C)Oc3c(C)c(O)c4c(O)c(c(/C=N/N5CCN(C)CC5)c(O)c4c3C2=O)NC(=O)/C(C)=C\C=C\[C@H](C)[C@H](O)[C@@H](C)[C@@H](O)[C@@H](C)[C@H](OC(C)=O)[C@@H]1C,-,MIC50,10 isolates,0.5 µg/mL
CC[C@H]1OC(=O)[C@H](C)[C@@H](O[C@H]2C[C@@](C)(OC)[C@@H](O)[C@H](C)O2)[C@H](C)[C@@H](O[C@@H]2O[C@H](C)C[C@H](N(C)C)[C@H]2O)[C@](C)(OC)C[C@@H](C)C(=O)[C@H](C)[C@@H](O)[C@]1(C)O,-,MBC,-,16 µg/mL
C[C@@H]1CN(c2c(F)c(N)c3c(=O)c(C(=O)O)cn(C4CC4)c3c2F)C[C@H](C)N1,-,MIC,-,0.4 µg/mL
CO[C@H]1/C=C/O[C@@]2(C)Oc3c(C)c(O)c4c(O)c(c5c(c4c3C2=O)NC2(CCN(CC(C)C)CC2)N=5)=NC(=O)/C(C)=C\C=C\[C@H](C)[C@H](O)[C@@H](C)[C@@H](O)[C@@H](C)[C@H](O)[C@@H]1C,-,MIC,CDC1,0.075 µg/mL
CCc1cc(C(N)=S)ccn1,5 µg/mL,inhibition,Serovar 8,87%
CCn1cc(C(=O)O)c(=O)c2cc(F)c(N3CCNCC3)nc21,-,MIC,-,13.7 µg/mL
N[C@@H]1CN(c2c(F)cc3c(=O)c(C(=O)O)cn([C@@H]4C[C@@H]4F)c3c2Cl)CC12CC2,-,MIC50,16 isolates,12.5 µg/mL
CCn1cc(C(=O)O)c(=O)c2cnc(N3CCNCC3)nc21,-,MIC,-,95.8 µg/mL
NC1CCN(c2nc3c(cc2F)c(=O)c(C(=O)O)cn3-c2ccc(F)cc2F)C1,-,MIC50,16 isolates,>100 µg/mL
CC[C@@H](C)N1CCN(c2cc(=O)c3nc4c(oc3c2)c2c(=O)c3c(O)c(C)c5c(c34)=C(O)[C@@](C)(O/C=C/[C@H](OC)[C@@H](C)[C@@H](OC(C)=O)[C@H](C)[C@H](O)[C@H](C)[C@@H](O)[C@@H](C)/C=C/C=C(/C)C(=O)N2)O5)CC1,-,MIC50,31 strains,0.05 µg/mL
CCn1cc(C(=O)O)c(=O)c2cc(F)c(-n3cccc3)cc21,-,MIC,-,47.2 µg/mL
CCn1cc(C(=O)O)c(=O)c2cc(F)c(N3CCN(C)CC3)cc21,-,MIC50,7 isolates,>16 µg/mL
CC[C@H]1OC(=O)[C@H](C)[C@@H](O[C@H]2C[C@@](C)(OC)[C@@H](O)[C@H](C)O2)[C@H](C)[C@@H](O[C@@H]2O[C@H](C)C[C@H](N(C)C)[C@H]2O)[C@](C)(OC)C[C@@H](C)C(=O)[C@H](C)[C@@H](O)[C@]1(C)O,-,MBC,N-260,16 µg/mL
CO[C@H]1/C=C/O[C@@]2(C)Oc3c(C)c(O)c4c(O)c(c(/C=N/N5CCN(C)CC5)c(O)c4c3C2=O)NC(=O)/C(C)=C\C=C\[C@H](C)[C@H](O)[C@@H](C)[C@@H](O)[C@@H](C)[C@H](OC(C)=O)[C@@H]1C,-,MIC,CIPT 140310030,0.1 µg/mL
Cc1c(F)c(N2CCNC(C)C2)cc2c1c(=O)c(C(=O)O)cn2C1CC1,-,MIC,-,1.8 µg/mL
CCCN1CCN(c2cc(=O)c3nc4c(oc3c2)c2c(=O)c3c(O)c(C)c5c(c34)=C(O)[C@@](C)(O/C=C/[C@H](OC)[C@@H](C)[C@@H](OC(C)=O)[C@H](C)[C@H](O)[C@H](C)[C@@H](O)[C@@H](C)/C=C/C=C(/C)C(=O)N2)O5)CC1,-,MIC90,31 strains,0.1 µg/mL
NCC[C@H](O)C(=O)N[C@@H]1C[C@H](N)[C@@H](O[C@H]2O[C@H](CN)[C@@H](O)[C@H](O)[C@H]2O)[C@H](O)[C@H]1O[C@H]1O[C@H](CO)[C@@H](O)[C@H](N)[C@H]1O,-,MBC,-,8 µg/mL
CC1CN(c2cc3c(cc2F)c(=O)c(C(=O)O)cn3-c2ccc(F)cc2F)CCN1,-,MIC,-,0.8 µg/mL
CC1COc2c(N3CCN(C)CC3)c(F)cc3c(=O)c(C(=O)O)cn1c23,-,MIC50,20 isolates,4 µg/mL
C[C@@H]1CN(c2c(F)c(N)c3c(=O)c(C(=O)O)cn(C4CC4)c3c2F)C[C@H](C)N1,-,MIC90,16 isolates,12.5 µg/mL
Cc1c(N2C[C@@H](N)C3(CC3)C2)c(F)c(N)c2c(=O)c(C(=O)O)cn(C3CC3)c12,-,MIC50,20 strains,12.5 µg/mL
COc1c(N2CCNC(C)C2)c(F)cc2c(=O)c(C(=O)O)cn(C3CC3)c12,-,MIC90,16 isolates,25 µg/mL
Nc1nc(-n2cc(C(=O)O)c(=O)c3cc(F)c(N4CC(O)C4)c(Cl)c32)c(F)cc1F,-,MIC90,20 strains,25 µg/mL
CC1CCc2cc(F)cc3c(=O)c(C(=O)O)cn1c23,-,MIC,-,82.1 µg/mL

Again, the opening 3 rows:

compound,dose,read-out,strain,value
CC1COc2c(N3CCN(C)CC3)c(F)cc3c(=O)c(C(=O)O)cn1c23,-,MIC,-,4 µg/mL
C[C@H]1COc2c(N3CCN(C)CC3)c(F)cc3c(=O)c(C(=O)O)cn1c23,-,MIC90,16 isolates,50 µg/mL
CN[C@@H]1[C@H](O[C@H]2[C@H](O[C@H]3[C@H](O)[C@@H](O)[C@H](N=C(N)N)[C@@H](O)[C@@H]3N=C(N)N)O[C@@H](C)[C@]2(O)C=O)O[C@@H](CO)[C@H](O)[C@H]1O,-,MBC,-,16 µg/mL